Measured values from several laboratories, pooled; numbers as filed in NIAID ChemDB.

Shared fields: whole-cell or culture tests; organism: HIV-1; cells: MT-4; endpoint: EC50

ECn is the concentration giving n% inhibition of infection, replication or growth.

SMILES,strain or isolate,changes,read by,result
CCc1cc(NCc2nc3c(Cl)ccc(Cl)c3o2)c(=O)[nH]c1C,IIIB,,p24,<0.025 µM
C=C(C)OC(=O)N1c2cc(Cl)ccc2NC(=S)C1(C)C,Recombinant,RT-V106A P225H,cytopathic effect,0.25 µM
C1CNCCNCCCN(CCCN2CCCNCCNCCCNCC2)CCNC1,A012B,,p24 / ELISA,0.12 µM
CC(C)(C)NC(=O)[C@@H]1CN(Cc2cccnc2)CCN1C[C@@H](O)C[C@@H](Cc1ccccc1)C(=O)N[C@H]1c2ccccc2C[C@H]1O,NL4-3,,cytopathic effect / MTT,0.0243 µM
Nc1ccn([C@@H]2CO[C@H](CO)S2)c(=O)n1,IIIB,,p24,0.9 µM
O=c1[nH]cnc2c1ncn2[C@H]1CC[C@@H](CO)O1,NL4-3,,cytopathic effect / MTT,5.2 µM
CC(C)c1c(CO)cn(Cc2ccccn2)c1Sc1cc(Cl)cc(Cl)c1,IIIB,,cytopathic effect / MTT,3 µM
COC(=O)NCCCC(C)(C)CN(C[C@@H](O)[C@H](Cc1ccccc1)NC(=O)O[C@H]1CO[C@H]2OCC[C@H]21)S(=O)(=O)c1ccc2c(c1)OCO2,Multi-PI-resistant EP13,PR-M46I L63P A71V V82F/L I84V,cytopathic effect / propidium iodide,0.038 µM
CC(C)[C@H](COCc1ccccc1)NC(=O)C(F)(F)C(=O)C(Cc1ccc(OCc2ccccc2)cc1)NC(=O)[C@@H](NC(=O)OCc1ccccc1)C(C)C,RF,,MTT,0.1 µM
Cc1cc(C#N)cc(C)c1Oc1nc(Nc2ccc(C#N)cc2)nc(N)c1Br,IIIB,K103N Y181C NNRTI-resistant,MTT,0.014 µM
CC(C)(C)[C@H](NC(=O)OCc1nc2ccccc2[nH]1)C(=O)N[C@@H](Cc1ccccc1)[C@@H](O)[C@H](CO)[C@H](Cc1ccccc1)NC(=O)[C@@H](NC(=O)OCc1nc2ccccc2[nH]1)C(C)(C)C,IIIB,,,0.5 µM
CCc1cc(NCc2nc3c(C)ccc(C)c3o2)c(=O)[nH]c1C,RF,,p24,<0.05 µM
CC(C)c1c(COC(N)=O)cn(Cc2ccncc2)c1Sc1cccc(Cl)c1,IIIB,,cytopathic effect / MTT,0.4 µM
CC(c1cc(=O)[nH]c(NC2CCCCC2)n1)c1c(F)cccc1F,IIIB,,cytopathic effect / MTT,0.022 µM
CNC(=O)[C@@H](NC(=O)[C@H](OCc1ccc(/C=C/C(=O)OC)cc1)[C@H](O)[C@@H](O)[C@@H](OCc1ccc(/C=C/C(=O)OC)cc1)C(=O)N[C@H](C(=O)NC)C(C)C)C(C)C,,,cytopathic effect / XTT,0.3 µM
N#Cc1ccc(Nc2nccc(Oc3cc4c(cc3Br)c(=O)c(C(=O)O)cn4C3CCCCC3)n2)cc1,IIIB,,MTT,0.77 µM
c1cc(CN2CCCNCCNCCCNCC2)ccc1CN1CCCNCCNCCCNCC1,92UG021 (subtype D),,MTT,0.002 µg/mL
N#Cc1ccc(Nc2nccc(Oc3cccc(C(=O)CC(=O)C(=O)O)c3)n2)cc1,IIIB,L100I,MTT,>10 µM
O=c1[nH]cnc2c1ncn2[C@H]1CC[C@@H](CO)O1,BI-03.97 (HXB2(RT-A62V S68G T69D V75I F77L F116Y Q151M)),RT-A62V S68G T69D V75I F77L F116Y Q151M,cytopathic effect,349 µM
COC(=O)NCCCC(C)(C)CN(C[C@@H](O)[C@H](Cc1ccccc1)NC(=O)O[C@H]1CO[C@H]2OCC[C@H]21)S(=O)(=O)c1ccc(N)cc1,Multi-PI-resistant EP13,PR-M46I L63P A71V V82F/L I84V,cytopathic effect / propidium iodide,0.046 µM
CCOC(=O)c1cn(Cc2ccncc2)c(Sc2cc(F)cc(F)c2)c1C(C)C,IIIB,,cytopathic effect / MTT,1.2 µM
O=C(O)C(=O)CC(=O)c1cccn1Cc1ccccc1,IIIB,,p24,<32 µM
Nc1ccn([C@H]2CO[C@@H](CO)S2)c(=O)n1,IIIB,,p24,2.8 µM
COC(=O)[C@@H](NC(=O)Cc1ccccc1)[C@@H]1N[C@@H](C(=O)NCCNC(=O)[C@@H]2N[C@@H]([C@H](NC(=O)Cc3ccccc3)C(=O)OC)SC2(C)C)C(C)(C)S1,IIIB,,cytopathic effect / MTT,>100 µg/mL
Cc1cccc(C)c1OCC(=O)N[C@@H](Cc1ccccc1)[C@@H](O)C[C@H](Cc1ccccc1)NC(=O)[C@H](C(C)C)N1CCCNC1=O,NL4-3,,cytopathic effect / MTT,0.0093 µM
COc1ccc(CCNc2nc(NC(=S)Nc3ccc(F)cc3)nc(Oc3cc(=O)oc4ccccc34)n2)cc1OC,IIIB,,MTT,>14.55 µg/mL
O=C(O)C(=O)CC(=O)c1cccc(Cc2cccc(F)c2)c1,IIIB,,p24,<2.5 µM
COc1ccc(CCNc2nc(NC(=S)Nc3ccc(Cl)cc3)nc(Oc3cc(=O)oc4ccccc34)n2)cc1OC,IIIB,,MTT,>40.83 µg/mL
Cc1ccccc1Sc1c(C(C)C)c(COC(N)=O)cn1Cc1ccncc1,IIIB,,cytopathic effect / MTT,5.4 µM
CC(C)(C)OC(=O)N[C@@H](Cc1ccccc1)C[C@H](O)[C@H](Cc1ccccc1)NC(=O)c1ccc(N)c(O)c1,IIIB,,cytopathic effect / MTT,>11 µM
CO[P@](=O)(c1cc(C)cc(/C=C/C#N)c1)c1c(C(N)=O)[nH]c2ccc(Cl)c(F)c12,BH10,K103N,,0.00026 µM
COc1ccc2c(c1)N(C(=O)OC(C)C)[C@@H](CSC)C(=S)N2,Recombinant,RT-V106A P225H,cytopathic effect,0.14 µM
Cc1cc(NC(=O)c2ccc(Cl)cc2)ccc1N1C(=O)c2ccc(Cl)cc2C1=O,IIIB,,MTT / absorbance,0.022 µM
O=c1[nH]cnc2c1ncn2[C@H]1CC[C@@H](CO)O1,IIIB,,MTT,18 µM
C[C@H](Cn1cnc2c(N)ncnc21)OCP(=O)(O)O,NL4-3,,cytopathic effect / MTT,1.7 µM
CC(C)Nc1cccnc1N1CCN(C(=O)c2cc3cc(NS(C)(=O)=O)ccc3[nH]2)CC1,FO-01.95,,cytopathic effect,0.008 µM
Cc1ccc(Sc2c(C(C)C)c(CO)cn2Cc2ccncc2)cc1,IIIB,,cytopathic effect / MTT,53 µM
CCC(C)n1cc(C(=O)O)c(=O)c2cc(I)c(Oc3ccnc(Nc4ccc(C#N)cc4)n3)cc21,IIIB,K103N Y181C NNRTI-resistant,MTT,0.77 µM
C(CCCN1CCCNCCNCCCNCC1)CCN1CCCNCCNCCCNCC1,IIIB,,cytopathic effect / MTT,0.616 µM
Cc1cn([C@H]2C[C@H](N=[N+]=[N-])[C@@H](CO)O2)c(=O)[nH]c1=O,T20R/C34R (subtype B),,MTT,0.0005 µg/mL
CCC(C)Nc1nc(C(C)c2c(F)cccc2F)cc(=O)[nH]1,,RT-Y181C,cytopathic effect / MTT,1.4 µM
Cc1ccnc2c1NC(=O)c1cccnc1N2C1CC1,IIIB,K103N,MTT,>15 µM
Cc1cn([C@H]2C=C[C@@H](CO)O2)c(=O)[nH]c1=O,NL4-3,,cytopathic effect / MTT,0.32 µM
Cc1cn([C@H]2C[C@H](N=[N+]=[N-])[C@@H](CO)O2)c(=O)[nH]c1=O,FO-08.96 (HXB2 RT F77L F116Y Q151M),RT-F77L F116Y Q151M,cytopathic effect,>5 µM
CC(C)CN(C[C@@H](O)[C@H](Cc1ccccc1)NC(=O)O[C@H]1CCOC1)S(=O)(=O)c1ccc(N)cc1,Multi-PI-resistant EP13,PR-M46I L63P A71V V82F/L I84V,cytopathic effect / propidium iodide,0.44 µM
O=c1cc(Cc2c(F)cccc2F)nc(SC2CCCC2)[nH]1,,RT-Y181C,cytopathic effect / MTT,5.3 µM
CC(C)c1c(CO)cn(Cc2ccc([N+](=O)[O-])cc2)c1Sc1cc(Cl)cc(Cl)c1,IIIB,,cytopathic effect / MTT,0.15 µM
CC(C)[C@H](NC(=O)OCc1ccccc1)C(=O)N[C@@H](Cc1ccccc1)[C@H](O)[C@@H](CO)[C@H](Cc1ccccc1)NC(=O)[C@H](CC(C)(C)C)NC(=O)OCc1ccccc1,IIIB,,,>10 µM
CCCCNc1nc(C(C)c2c(F)cccc2F)cc(=O)[nH]1,,RT-Y181C,cytopathic effect / MTT,0.6 µM
CCOC(=O)c1cn(Cc2cccnc2)c(Sc2cc(Cl)cc(Cl)c2)c1C(C)C,IIIB,,cytopathic effect / MTT,>200 µM
CC(C)[C@H](NC(=O)OCc1ccccc1)C(=O)N[C@@H](Cc1ccccc1)[C@@H](O)[C@H](CO)[C@H](Cc1ccccc1)NC(=O)[C@@H](NC(=O)OCc1ccccc1)C(C)C,IIIB,,,3.7 µM
Cc1nc2ccccc2c(-c2ccc3c4c(cccc24)C2CC32)c1[C@H](OC(C)(C)C)C(=O)O,IIIB,,ATP,0.043 µM
Cc1ccnc2c1NC(=O)c1cccnc1N2C1CC1,IIIB,,MTT / absorbance,0.05 µM
CCn1cc(C(=O)O)c(=O)c2cc(Br)c(Oc3ccnc(Nc4ccc(C#N)cc4)n3)cc21,IIIB,,MTT,0.02 µM
CCOC(=O)C(=O)CC(=O)c1cccc(Oc2ccnc(Nc3ccc(C#N)cc3)n2)c1,RES056,,MTT,>14 µM
CC(C)(C)NC(=O)[C@@H]1C[C@@H]2CCCC[C@@H]2CN1C[C@@H](O)[C@H](Cc1ccccc1)NC(=O)[C@H](CC(N)=O)NC(=O)c1ccc2ccccc2n1,NL4-3,,cytopathic effect / MTT,0.02 µM
CC(C)C(NC(=O)[C@H](OCc1ccccc1)[C@H](O)[C@@H](O)[C@@H](OCc1ccccc1)C(=O)N[C@H](C(=O)NC1CC1)C(C)C)C(=O)NC1CC1,,,cytopathic effect / XTT,6 µM
Cc1cc(NS(=O)(=O)c2ccc([N+](=O)[O-])cc2)ccc1N1C(=O)c2ccc(Cl)cc2C1=O,IIIB,,MTT / absorbance,0.003 µM
CC(C)(C)OC(=O)N[C@@H](Cc1ccccc1)C[C@H](O)[C@H](Cc1ccccc1)NC(=O)c1cc(N)cc(N)c1,IIIB,,cytopathic effect / MTT,>92 µM
O=C(N[C@H]1c2ccccc2C[C@H]1O)[C@H](OCc1ccc(F)cc1F)[C@H](O)[C@@H](O)[C@@H](OCc1ccc(F)cc1F)C(=O)N[C@H]1c2ccccc2C[C@H]1O,,,cytopathic effect / XTT,0.1 µM
Cc1cc(NC(=O)c2ccccc2)ccc1N1C(=O)c2ccc(Cl)cc2C1=O,IIIB,,MTT / absorbance,0.161 µM
CNC(=O)[C@@H](NC(=O)[C@H](OCc1ccccc1)[C@H](O)[C@@H](O)[C@@H](OCc1ccccc1)C(=O)N[C@H](C(=O)NC)C(C)C)C(C)C,,,cytopathic effect / XTT,0.5 µM
COC(=O)NCCCCC(C)(C)CN(C[C@@H](O)[C@H](Cc1ccccc1)NC(=O)O[C@H]1CO[C@H]2OCC[C@H]21)S(=O)(=O)c1ccc2c(c1)OCO2,Multi-PI-resistant EP13,PR-M46I L63P A71V V82F/L I84V,cytopathic effect / propidium iodide,0.015 µM
CCOCn1c(Cc2ccccc2)c(C(C)C)c(=O)[nH]c1=O,Recombinant,RT-V106A P225H,cytopathic effect,1.6 µM
O=C(N[C@H]1c2ccccc2C[C@H]1O)[C@H](OCc1ccccc1F)[C@H](O)[C@@H](O)[C@@H](OCc1ccccc1F)C(=O)N[C@H]1c2ccccc2C[C@H]1O,,,cytopathic effect / XTT,0.04 µM
CC(C)=CCN1Cc2cc(Cl)cc3[nH]c(=O)n(c23)C[C@@H]1C,Recombinant,RT-P225H,cytopathic effect,0.165 µM
Cc1cc(NS(=O)(=O)c2c(C(C)C)cc(C(C)C)cc2C(C)C)ccc1N1C(=O)c2ccc(Cl)cc2C1=O,IIIB,,MTT / absorbance,0.005 µM
CC(C)(C)[C@H](NC(=O)c1nc2ccccc2[nH]1)C(=O)N[C@@H](Cc1ccccc1)[C@@H](O)[C@H](CO)[C@H](Cc1ccccc1)NC(=O)[C@@H](NC(=O)c1nc2ccccc2[nH]1)C(C)(C)C,IIIB,,,>10 µM
Nc1ccn([C@H]2CC[C@@H](CO)O2)c(=O)n1,ROD,,MTT,0.328 µg/mL
COc1ccc(CCNc2nc(NC(=S)Nc3ccc(Br)cc3)nc(Oc3cc(=O)oc4ccccc34)n2)cc1OC,IIIB,,MTT,>62.7 µg/mL
N#Cc1ccc(Nc2nccc(Oc3cc4c(cc3Br)c(=O)c(C(=O)O)cn4C3CC3)n2)cc1,IIIB,,MTT,0.98 µM

7 of the rows above, restated:

SMILES,strain or isolate,changes,read by,result
O=c1[nH]cnc2c1ncn2[C@H]1CC[C@@H](CO)O1,NL4-3,,cytopathic effect / MTT,5.2 µM
Nc1ccn([C@H]2CO[C@@H](CO)S2)c(=O)n1,IIIB,,p24,2.8 µM
N#Cc1ccc(Nc2nccc(Oc3cc4c(cc3Br)c(=O)c(C(=O)O)cn4C3CCCCC3)n2)cc1,IIIB,,MTT,0.77 µM
Cc1cn([C@H]2C[C@H](N=[N+]=[N-])[C@@H](CO)O2)c(=O)[nH]c1=O,T20R/C34R (subtype B),,MTT,0.0005 µg/mL
CC(C)=CCN1Cc2cc(Cl)cc3[nH]c(=O)n(c23)C[C@@H]1C,Recombinant,RT-P225H,cytopathic effect,0.165 µM
CCC(C)Nc1nc(C(C)c2c(F)cccc2F)cc(=O)[nH]1,,RT-Y181C,cytopathic effect / MTT,1.4 µM
COc1ccc(CCNc2nc(NC(=S)Nc3ccc(Br)cc3)nc(Oc3cc(=O)oc4ccccc34)n2)cc1OC,IIIB,,MTT,>62.7 µg/mL

Blank or dashed fields: not listed here. Lines come from different laboratories, so protocols vary.